Anti-infective test results gathered from many reports (values: NIAID ChemDB through PubChem).

Common to all: growth or infection tests; organism: Mycobacterium avium

ECn: concentration that inhibits the pathogen or its effect by n%. Blank or dashed fields: not listed here. A number after MIC or MFC names an inhibition level or a share of isolates. Two numbers with a dash give a range or band. Lines come from different laboratories, so protocols vary.

SMILES | measure | conditions | strain or isolate | result
NNC(=O)c1ccncc1 | MIC90 |  | Reference strains | >16 µg/mL
C[C@H]1COc2c(N3C[C@@H](N)C4(CCC4)C3)c(F)cc3c(=O)c(C(=O)O)cn1c23 | Mean MIC |  | 4 strains | 2.3 µg/mL
c1cncc(CSc2nc3ccccc3o2)c1 | MIC |  | MY330/88 | 250 µM
CC(C)N=c1cc2n(-c3ccc(Cl)cc3)c3ccccc3nc-2cc1Nc1ccc(Cl)cc1 | MIC90 |  | Reference strains | 1 µg/mL
CC1CN(c2cc3c(cc2F)c(=O)c(C(=O)O)cn3C(C)(C)C)CCN1 | MIC |  | 14 strains | 0.1–12.5 µg/mL
O=C(Nc1ccccc1)c1ccccc1O | MIC |  | MY330/88 | 125 µM
N#Cc1cc(SCc2cccc3ccccc23)ccn1 | MIC |  | MY330/88 | >125 µM
C[C@@H]1CN(c2cc3c(cc2F)c(=O)c(C(=O)O)cn3C(C)(C)C)C[C@H](C)N1 | MIC |  | 14 strains | 0.1–12.5 µg/mL
C[C@H]1COc2c(N3CC[C@@H](CNC4CC4)C3)c(F)cc3c(=O)c(C(=O)O)cn1c23 | Mean MIC |  | 4 strains | 7.8 µg/mL
N#Cc1cccc2oc3ccccc3c(=O)c12 | MIC |  | SN 304 | >16 µg/mL
NCC[C@H](O)C(=O)N[C@@H]1C[C@H](N)[C@@H](O[C@H]2O[C@H](CN)[C@@H](O)[C@H](O)[C@H]2O)[C@H](O)[C@H]1O[C@H]1O[C@H](CO)[C@@H](O)[C@H](N)[C@H]1O | MIC |  | A5 | 1 µg/mL
CCCCCCn1c(C)c(CN2CCN(C)CC2)c(CN2CCN(C)CC2)c1C | MIC |  | 103317 | >64 µg/mL
c1cncc(CSc2ncn[nH]2)c1 | MIC |  | MY330/88 | >1000 µM
Cc1[nH]c(-c2ccc(Cl)cc2)c(CN2CCN(C)CC2)c1CN1CCN(C)CC1 | MIC |  | 103317 | >64 µg/mL
C[C@H]1COc2c(N3C[C@@H](N)C4(CC4)C3)c(F)cc3c(=O)c(C(=O)O)cn1c23 | Mean MIC |  | 4 strains | 3.1 µg/mL
CCN(CC)c1nc2c(s1)c1c(O)c3c(O)c(C)c4c(c32)C(=O)[C@@](C)(O/C=C/[C@H](OC)[C@@H](C)[C@@H](OC(C)=O)[C@H](C)[C@H](O)[C@H](C)[C@@H](O)[C@@H](C)/C=C/C=C(/C)C(=O)N1)O4 | MBC |  | 3337-4 | 8 µg/mL
CN(C)c1ccc(-n2c(=O)oc3ccccc3c2=O)cc1 | MIC |  | MY330/88 | >125 µM
Cc1cc(N)cc2c(=O)c3ccccc3oc12 | MIC |  | SN 304 | >16 µg/mL
CC[C@H]1OC(=O)[C@H](C)[C@@H](O[C@H]2C[C@@](C)(OC)[C@@H](O)[C@H](C)O2)[C@H](C)[C@@H](O[C@@H]2O[C@H](C)C[C@H](N(C)C)[C@H]2O)[C@](C)(OC)C[C@@H](C)C(=O)[C@H](C)[C@@H](O)[C@]1(C)O | MIC |  | 453-C clarithromycin-resistant | 512 µg/mL
CCn1cc(C(=O)O)c(=O)c2cc(F)c(-n3cccc3)cc21 | EC50 | pH 6.8 |  | >3 µg/mL
C[C@@H]1CN(c2nc3c(cc2F)c(=O)c(C(=O)O)cn3C(C)(C)C)C[C@H](C)N1 | MIC |  | 14 strains | 0.1–12.5 µg/mL
Cc1c(CN2CCN(C)CC2)c(CN2CCN(C)CC2)c(C)n1Cc1ccccc1 | MIC |  | 103317 | >64 µg/mL
CCC1CN(c2c(F)cc3c(=O)c(C(=O)O)cn(C4CC4)c3c2OC)CCN1 | MIC |  | 14 strains | 0.1–12.5 µg/mL
O=C(O)c1cccc2c(=O)c3ccccc3oc12 | MIC |  | SN 304 | >32 µg/mL
Cc1ccc(NC(=O)c2ccccc2N)cc1 | MIC |  | MY330/88 | >250 µM
Cc1cc(CN2CCN(C)CC2)c(C)n1Cc1ccccc1 | MIC |  | 103317 | >64 µg/mL
CO[C@H]1/C=C/O[C@@]2(C)Oc3c(C)c(O)c4c(O)c(c5c(c4c3C2=O)NC2(CCN(CC(C)C)CC2)N=5)=NC(=O)/C(C)=C\C=C\[C@H](C)[C@H](O)[C@@H](C)[C@@H](O)[C@@H](C)[C@H](OC(C)=O)[C@@H]1C | MIC90 |  | Clinical strains | 4 µg/mL
N#Cc1cc(SCc2ccccn2)ccn1 | MIC |  | MY330/88 | 62.5 µM
Cc1ccc(-n2c(=O)[nH]c3ccccc3c2=O)cc1C | MIC |  | MY330/88 | 250 µM
c1ccc(CSc2nc3ccccc3s2)nc1 | MIC |  | MY330/88 | 125 µM
CC[C@H]1OC(=O)[C@H](C)[C@@H](O[C@H]2C[C@@](C)(OC)[C@@H](O)[C@H](C)O2)[C@H](C)[C@@H](O[C@@H]2O[C@H](C)C[C@H](N(C)C)[C@H]2O)[C@](C)(OC)C[C@@H](C)C(=O)[C@H](C)[C@@H](O)[C@]1(C)O | MIC |  | A5 | ≤0.13 µg/mL
COc1cc(/C=C/C=O)ccc1O | MIC |  | ATCC 25291 | 128 µg/mL
CC(C)(C)c1ccc(CNc2ccccc2C2=NCCN2)cc1 | MIC |  | 103317 | 4 µg/mL
CC[C@H]1OC(=O)[C@H](C)[C@@H](O[C@H]2C[C@@](C)(OC)[C@@H](O)[C@H](C)O2)[C@H](C)[C@@H](O[C@@H]2O[C@H](C)C[C@H](N(C)C)[C@H]2O)[C@](C)(O)C[C@@H](C)[C@@H]2N[C@@H](COCCOC)O[C@H]([C@H]2C)[C@]1(C)O | Median MIC |  | 30 strains | 16 µg/mL
CN1CCN(c2ccccc2NCc2cccc3ccccc23)CC1 | MIC |  | 103317 | >16 µg/mL
CN[C@@H]1[C@H](O[C@H]2[C@H](O[C@H]3[C@H](O)[C@@H](O)[C@H](N=C(N)N)[C@@H](O)[C@@H]3N=C(N)N)O[C@@H](C)[C@]2(O)C=O)O[C@@H](CO)[C@H](O)[C@H]1O | MIC |  | 1435-C clarithromycin-resistant | 8 µg/mL
CC[C@H]1OC(=O)[C@H](C)[C@@H](O[C@H]2C[C@@](C)(OC)[C@@H](O)[C@H](C)O2)[C@H](C)[C@@H](O[C@@H]2O[C@H](C)C[C@H](N(C)C)[C@H]2O)[C@](C)(OC)C[C@@H](C)C(=O)[C@H](C)[C@@H](O)[C@]1(C)O | MIC90 |  | Clinical strains | 16 µg/mL
Nc1ccc2oc3ccc(C(=O)O)cc3c(=O)c2c1 | MIC |  | SN 304 | >32 µg/mL
CN[C@H]1CCN(c2c(F)cc3c(=O)c(C(=O)O)cn4c3c2OC[C@@H]4C)C1 | Mean MIC |  | 4 strains | 17.2 µg/mL
N[C@@H]1CONC1=O | MIC |  | 3011 | 8 µg/mL
Cc1cccc2oc3ccccc3c(=O)c12 | MIC |  | SN 304 | >32 µg/mL

The last 3 rows once more:

| SMILES | measure | conditions | strain or isolate | result |
|---|---|---|---|---|
| CN[C@H]1CCN(c2c(F)cc3c(=O)c(C(=O)O)cn4c3c2OC[C@@H]4C)C1 | Mean MIC |  | 4 strains | 17.2 µg/mL |
| N[C@@H]1CONC1=O | MIC |  | 3011 | 8 µg/mL |
| Cc1cccc2oc3ccccc3c(=O)c12 | MIC |  | SN 304 | >32 µg/mL |